Compound potency records, mixed from different reports. Data source: NIAID ChemDB in PubChem.

Shared fields: growth or infection tests; agent: Mycobacterium bovis BCG; measure: MIC

Rows are shuffled and stem from different studies. An empty or dashed field is not shown.

compound | strain or isolate | changes | read by | setting | value
CC(C)CCSc1ccc(NC(=S)Nc2ccc(SCCC(C)C)cc2)cc1 | NCTC 5692 ethR::hyg |  |  |  | 2.5 µg/mL
C[C@H]1COC2(CCN(c3nc(=O)c4cc(C(F)(F)F)cc([N+](=O)[O-])c4s3)CC2)O1 |  | DprE1 mutant (E221Q) | fluorescence |  | 0.018 µM
CC1=C[C@H](OC(=O)c2ccccc2)C2[C@](C)(CC[C@@]2(O)C(C)C)CC1=O | Pasteur |  |  |  | 25 µg/mL
Cc1ccc(-c2cc(CN3CCOCC3)c(C)n2-c2ccc(F)cc2)cc1 | WILD TYPE |  |  |  | 0.08 µM
CC1=CCC2(C)CCC(O)(C(C)C)C2C(OC(=O)c2ccccc2)C1 | Pasteur |  |  |  | 3.125 µg/mL
O=C(C1CCN(c2nnc(-n3cccc3)s2)CC1)N1CCC(Cc2ccccc2)CC1 |  | DprE1 mutant (E221Q) | fluorescence |  | 25 µM
COc1ccc(/C(C)=N/NC(N)=S)cc1 | NCTC 5692 ethR::hyg |  |  |  | 0.25 µg/mL
Cc1c(CN2CCN(C)CC2)cc(-c2ccc(Cl)cc2)n1-c1ccc(Cl)cc1 |  |  |  |  | 1.88 µM
CCCCCCCCCCCCCCSCC#CC(=O)O | Pasteur |  |  |  | 0.5 µM
COc1cc(C(=O)O[C@H]2C=C(C)/C(=C\CO)C[C@@]3(C)CC[C@@](O)(C(C)C)C23)ccc1O | Pasteur |  |  |  | >50 µg/mL
CCc1ccc(-c2cc(CN3CCOCC3)c(C)n2-c2ccc(F)cc2)cc1 | M1 | L320R E466K I585V |  |  | 0.63 µM
CCc1ccccc1OCCCON1C(N)=NC(N)=NC1(C)C |  | DHFR-overexpressing | fluorescence |  | >33.6 µM
O=C(NCCCOCCOCCOCCNC(=O)c1ccc2c(c1)B(O)OC2)c1ccc2c(c1)B(O)OC2 |  |  | visual reading / absorbance |  | 1560 µM
CCc1n[nH]c(=S)n1N |  |  | broth dilution / resazurin | 48 h | 62.5 µg/mL
NNC(=O)c1ccncc1 |  | DHFR-overexpressing | fluorescence |  | 0.7 µM
CC(C)[C@]1(C)CC[C@]2(C)C=CC(C)(C)C[C@H](OC(=O)c3ccc(O)cc3)C12 | Pasteur |  |  |  | 50 µg/mL

For reference, 2 entries again:

compound	strain or isolate	changes	read by	setting	value
COc1cc(C(=O)O[C@H]2C=C(C)/C(=C\CO)C[C@@]3(C)CC[C@@](O)(C(C)C)C23)ccc1O	Pasteur				>50 µg/mL
Cc1ccc(-c2cc(CN3CCOCC3)c(C)n2-c2ccc(F)cc2)cc1	WILD TYPE				0.08 µM